Tested on: Isolated Langendorff-perfused sheep hearts with tachypacing induced chronic/persistent atrial fibrillation
Test: Optical mapping of isolated Langendorff-perfused sheep hearts with tachypacing induced chronic/persistent atrial fibrillation
[1] = 4 hearts, baseline vs right before termination
[2] = pacing at 2.5 HZ, 200 nM, baseline vs after AF termination

CC[C@H](C)[C@@H]1NC(=O)[C@H](CCCNC(=N)N)NC(=O)[C@H](CC(N)=O)NC(=O)[C@@H]2CSSC[C@@H](C(=O)NCC(=O)N[C@@H](CCCCN)C(=O)N[C@@H](CCCCN)C(N)=O)NC(=O)[C@H](CCCCN)NC(=O)[C@H](CCCCN)NC(=O)[C@H](Cc3c[nH]c4ccccc34)NC(=O)[C@H](CSSC[C@H](NC(=O)[C@H](CC(C)C)NC(=O)[C@H](C)N)C(=O)N[C@@H](CC(N)=O)C(=O)N2)NC(=O)[C@H](CCC(N)=O)NC(=O)[C@H](Cc2c[nH]cn2)NC(=O)[C@@H]2CCCN2C(=O)[C@H]([C@@H](C)CC)NC(=O)[C@H]([C@@H](C)CC)NC1=O [TertiapinQ]
Time of application until heart reverted to normal sinus rhythm (200 nM, one example heart): 4 min
Dominant frequency (DF) in PLA, LA and RA, 2 minutes after application (200 nM, one example heart, 2 minutes): decrease
Dominant frequency (DF) in the PLA, LA, and RA [1]: significantly decreased
Singularity point (SP) density in the PLA [1]: significantly decreased
Hearts in which sinus rhythm was restored (100 to 200 nM): 4 out of 5
APD50 in the PLA, LA, and RA [2]: significantly prolonged
APD75 in the PLA, LA, and RA [2]: significantly prolonged
